The list shows a part of the results, in another mix than the full data. Calls of active or inactive are those of the source. Cut-off read from the data, not from the text of the source: active = inhibition above about 13% (passing the limit was not always enough); inactive = the rest.
molecular target: Lon protease (Escherichia coli (strain K12)) (UniProt P0A9M0); assay: E. coli eLon protease inhibition – biochemical, fluorescence polarization, primary screen (AID 602123);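 note: 0% = enzyme with probe and DMSO and 100% = no enzyme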; details: purified E. coli Lon protease, at 7.94 µM, active compounds read high

Amino acid sequences for entries named in this document (tags omitted).
UniProt P0A9M0, whole entry: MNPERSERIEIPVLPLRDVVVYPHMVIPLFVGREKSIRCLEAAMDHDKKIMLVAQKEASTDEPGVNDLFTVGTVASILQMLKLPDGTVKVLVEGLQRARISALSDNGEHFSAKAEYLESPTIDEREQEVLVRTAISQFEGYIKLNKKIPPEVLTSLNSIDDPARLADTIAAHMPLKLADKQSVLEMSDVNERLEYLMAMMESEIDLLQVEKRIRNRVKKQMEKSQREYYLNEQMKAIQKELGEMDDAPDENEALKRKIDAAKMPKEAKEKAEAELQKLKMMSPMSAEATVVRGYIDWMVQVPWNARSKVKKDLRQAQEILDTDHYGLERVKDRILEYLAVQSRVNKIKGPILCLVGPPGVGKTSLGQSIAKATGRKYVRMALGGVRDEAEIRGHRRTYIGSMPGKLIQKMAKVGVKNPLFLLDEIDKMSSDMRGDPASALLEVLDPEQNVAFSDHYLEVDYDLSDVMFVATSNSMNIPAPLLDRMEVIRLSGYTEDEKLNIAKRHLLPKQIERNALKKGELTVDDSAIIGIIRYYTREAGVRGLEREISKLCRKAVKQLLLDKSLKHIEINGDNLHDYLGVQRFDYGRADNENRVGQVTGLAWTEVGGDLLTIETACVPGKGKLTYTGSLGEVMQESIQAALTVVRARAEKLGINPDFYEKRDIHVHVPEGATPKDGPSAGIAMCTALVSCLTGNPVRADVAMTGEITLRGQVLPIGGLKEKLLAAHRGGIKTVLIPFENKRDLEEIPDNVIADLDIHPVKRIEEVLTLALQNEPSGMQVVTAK

Row | SMILES | inhibition
1 | O=c1[nH]c2ccccc2n1C1CCN(C(c2cccs2)c2nnnn2C2CCCCC2)CC1 (stereo not drawn) | inactive: -7.42%
2 | O=c1[nH]c2ccccc2n1C1CCN(C(c2ccnc3ccccc23)c2nnnn2C2CCCC2)CC1 (stereo not drawn) | inactive: -7.91%
3 | COc1ccc(C(=O)NCC2(N3CCOCC3)CCCCC2)cc1OC | inactive: -8.04%
4 | COc1cc(C(=O)NCC2(N3CCOCC3)CCCCC2)cc(OC)c1C | inactive: -10.4%
5 | CCCCn1nnnc1C(c1ccccc1)N1CCC(n2c(=O)[nH]c3ccccc32)CC1 (stereo not drawn) | inactive: -3.63%
6 | O=C(NCC1(N2CCOCC2)CCCCC1)c1cc(Br)ccc1Cl | inactive: -7.46%
7 | O=c1[nH]c2ccccc2n1C1CCN(C(c2cccs2)c2nnnn2C2CCCC2)CC1 (stereo not drawn) | inactive: -2.61%
8 | O=C(OC1CN2CCC1CC2)C1c2ccccc2C=Cc2ccccc21 (stereo not drawn) | inactive: -13.2%
9 | CCCCn1nnnc1C(c1cccc(OC)c1OC)N1CCC(n2c(=O)[nH]c3ccccc32)CC1 (stereo not drawn) | inactive: 1.24%
10 | CCOC(=O)N1CCC(Nc2ccc(C)cc2)CC1 | inactive: 1.42%
11 | COc1cccc(C(c2nnnn2C(C)(C)C)N2CCC(n3c(=O)[nH]c4ccccc43)CC2)c1OC (stereo not drawn) | inactive: -6.79%
12 | N/C(=N\O)c1c(N)no[n+]1[O-] | inactive: 0.32%
13 | N#Cc1ccc(C(=O)NCC2(N3CCCCC3)CCCCC2)cc1 | inactive: -1.39%
14 | CC(C)(C)OC(=O)N1CCC(N(C(=O)c2ccccc2)c2ccc(Cl)cc2)CC1 | inactive: 3.99%
15 | CC(C)(C)n1nnnc1C(c1cccc2ccccc12)N1CCC(n2c(=O)[nH]c3ccccc32)CC1 (stereo not drawn) | inactive: -5.44%
16 | CN(C)C1(CNC(=O)c2cccc(C#N)c2)CCCCC1 | inactive: -1.65%
17 | Cc1cc(N(CCCl)CCCl)ccc1C=O | inactive: -9.74%
18 | CCCN1CCC(Nc2cc(OC)cc(OC)c2)CC1 | inactive: 12%
19 | O=c1[nH]c2ccccc2n1C1CCN(C(c2ccccc2)c2nnnn2C2CCCC2)CC1 (stereo not drawn) | inactive: -6.44%
20 | c1ccc(CN2CCC(Nc3ccccc3)CC2)cc1 | inactive: -5.62%
21 | Fc1ccccc1NC1CCN(Cc2ccccc2)CC1 | inactive: -10.9%
22 | Cc1ccc(C(=O)NCC2(N3CCCCC3)CCCCC2)o1 | inactive: -6.64%

Row | SMILES | inhibition
23 | Cc1ccc(NC2(C#N)CCN(Cc3ccccc3)CC2)cc1 | inactive: -13%
24 | CCC(c1nnnn1C1CCCCC1)N1CCC(n2c(=O)[nH]c3ccccc32)CC1 (stereo not drawn) | inactive: -0.99%
25 | COc1cccc(C(c2nnnn2C2CCCCC2)N2CCC(n3c(=O)[nH]c4ccccc43)CC2)c1OC (stereo not drawn) | inactive: -6.51%
26 | CC(=O)N(c1ccccc1)C1CCNCC1 | inactive: -6.34%
27 | COc1cc(OC)cc(C(=O)NCC2(N3CCCCC3)CCCCC2)c1 | inactive: -8.07%
28 | O=c1[nH]c2ccccc2n1C1CCN(C(c2ccnc3ccccc23)c2nnnn2C2CCCCC2)CC1 (stereo not drawn) | inactive: 0.54%
29 | CN(C)c1ccc(C(=O)NCC2(N3CCCCC3)CCCCC2)cc1 | inactive: -10.5%
30 | Cn1c(=O)[nH]cc(N(CCCl)CCCl)c1=O | inactive: 2.82%
31 | O=C(NCC1(N2CCCCC2)CCCCC1)c1ccco1 | inactive: -2.56%
32 | CCN1CCC(Nc2cccc(F)c2)CC1 | inactive: 0.18%
33 | COc1ccc(C(c2nnnn2C2CCCCC2)N2CCC(n3c(=O)[nH]c4ccccc43)CC2)cc1 (stereo not drawn) | inactive: -5.05%
34 | CC(C)(C)n1nnnc1C(c1ccnc2ccccc12)N1CCC(n2c(=O)[nH]c3ccccc32)CC1 (stereo not drawn) | inactive: -4.47%
35 | Cc1ccccc1NC1(C#N)CCN(Cc2ccccc2)CC1 | inactive: -8.98%
36 | NN(c1ccccc1)C1CCN(CCc2ccccc2)CC1 | inactive: -0.89%
37 | O=C(O)C1(Nc2ccccc2)CCN(Cc2ccccc2)CC1 | inactive: -6.32%
38 | CC(C)(C)OC(=O)N1CCC(Nc2ccccc2)CC1 | inactive: -4.38%
39 | O=c1[nH]c2ccccc2n1C1CCN(C(c2cc3ccccc3o2)c2nnnn2C2CCCC2)CC1 (stereo not drawn) | inactive: -6.54%
40 | CCCOc1ccc(C(=O)NCC2(N(C)C)CCCCC2)cc1 | inactive: -8.04%
41 | CN1CCC(Nc2ccc(F)c(Cl)c2)CC1 | inactive: 3.07%
42 | CCOc1ncccc1C(=O)NCC1(N2CCOCC2)CCCCC1 | inactive: -3.44%
43 | CN1CCC(Nc2ccc(Cl)cc2)CC1 | inactive: 2.34%
44 | COc1cccc(C(=O)N(c2cc(C)cc(C)c2)C2CCN(C(=O)OC(C)(C)C)CC2)c1 | inactive: -8.73%

Row | SMILES | inhibition
45 | COc1cccc(C(c2nnnn2C2CCCC2)N2CCC(n3c(=O)[nH]c4ccccc43)CC2)c1OC (stereo not drawn) | inactive: -6.56%
46 | COc1cc(OC)cc(C(=O)NCC2(N3CCOCC3)CCCCC2)c1 | inactive: -5.17%
47 | CCC(CO)(C(=O)OC1CN2CCC1CC2)c1ccccc1 (stereo not drawn) | inactive: 1.68%
48 | Cc1cccc(NC2(C#N)CCN(Cc3ccccc3)CC2)c1 | inactive: 0.42%
49 | CSc1ccccc1C(=O)NCC1(N2CCCCC2)CCCCC1 | inactive: 0.73%
50 | CC(C)(C)OC(=O)N1CCC(N(C(=O)c2ccccc2)c2ccc(F)cc2)CC1 | inactive: 7.44%
51 | COc1ccc(C(=O)NCC2(N3CCCCC3)CCCCC2)c(OC)c1OC | inactive: 0.71%
52 | CCC(c1nnnn1C1CCCC1)N1CCC(n2c(=O)[nH]c3ccccc32)CC1 (stereo not drawn) | inactive: -5.45%
53 | COc1ccc(C(=O)NCC2(N3CCCCC3)CCCCC2)cc1 | inactive: -4.54%
54 | O=C(NCC1(N2CCCCC2)CCCCC1)c1cccs1 | inactive: 1.37%
55 | CCCCn1nnnc1C(CC)N1CCC(n2c(=O)[nH]c3ccccc32)CC1 (stereo not drawn) | inactive: 1.21%
56 | CCCCn1nnnc1C(c1cccs1)N1CCC(n2c(=O)[nH]c3ccccc32)CC1 (stereo not drawn) | inactive: -7.57%
57 | O=C(NCC1(N2CCCCC2)CCCCC1)c1ccc(=O)[nH]c1 | inactive: 0.95%
58 | COc1ccc(Cl)cc1C(=O)NCC1(N2CCOCC2)CCCCC1 | inactive: 4.71%
59 | N#CC1(Nc2ccccc2)CCN(Cc2ccccc2)CC1 | inactive: 2.17%
60 | O=C(NCC1(N2CCCCC2)CCCCC1)c1ccc(Cl)s1 | inactive: -19.1%
61 | O=c1[nH]c2ccccc2n1C1CCN(C(c2cc3ccccc3o2)c2nnnn2C2CCCCC2)CC1 (stereo not drawn) | inactive: 3.72%
62 | O=C(OC1CN2CCC1CC2)C1c2ccccc2Oc2ccccc21 (stereo not drawn) | inactive: 9.46%
63 | CCCCn1nnnc1C(c1ccc(OC)cc1)N1CCC(n2c(=O)[nH]c3ccccc32)CC1 (stereo not drawn) | inactive: -5.86%
64 | CCOC(=O)N1CCC(Nc2ccc(OC)cc2)CC1 | inactive: 3.35%
65 | Cc1cc(C)cc(N(C(=O)c2ccccc2)C2CCN(C(=O)OC(C)(C)C)CC2)c1 | inactive: -10.1%
66 | O=C(NCC1(N2CCCCC2)CCCCC1)c1ccc(Cl)nc1 | inactive: -9.01%

Row | SMILES | inhibition
67 | O=c1[nH]c2ccccc2n1C1CCN(C(c2ccccc2OC(F)(F)F)c2nnnn2C2CCCCC2)CC1 (stereo not drawn) | inactive: -7.37%
68 | O=C(NCC1(N2CCOCC2)CCCCC1)c1cc2ccccc2o1 | inactive: 1.3%
69 | CCOC(=O)N1CCC(Nc2ccc(F)cc2)CC1 | inactive: -3.93%
70 | COc1ccc(NC2CCN(CCc3ccccc3)CC2)c(OC)c1 | inactive: 1.36%
71 | CCCCOc1ccc(C(=O)NCC2(N3CCOCC3)CCCCC2)cc1 | inactive: -0.08%
72 | O=P1(N(CCCl)CCCl)SCCCS1 | inactive: -3.84%
73 | CCCCn1nnnc1C(c1cc2ccccc2o1)N1CCC(n2c(=O)[nH]c3ccccc32)CC1 (stereo not drawn) | inactive: -16.1%
74 | O=C(NCC1(N2CCCCC2)CCCCC1)c1ccc(F)cc1 | inactive: 9.29%
75 | O=C1CCN(Cc2ccccc2)CC1 | inactive: -12.4%
76 | CC(C)(C)n1nnnc1C(c1ccccc1)N1CCC(n2c(=O)[nH]c3ccccc32)CC1 (stereo not drawn) | inactive: -9.66%
77 | CCOc1ccc(C)cc1CN(CCCl)CCCl | inactive: -1.32%
78 | CCOC(=O)N1CCC(Nc2cccc(C)c2)CC1 | inactive: -0.21%
79 | COc1cc(C(=O)NCC2(N(C)C)CCCCC2)ccc1OC(F)F | inactive: 0.79%
80 | O=c1[nH]c2ccccc2n1C1CCN(C(c2cccc3ccccc23)c2nnnn2C2CCCC2)CC1 (stereo not drawn) | inactive: -8.26%
81 | O=c1[nH]c2ccccc2n1C1CCN(C(c2ccccc2)c2nnnn2C2CCCCC2)CC1 (stereo not drawn) | inactive: -6.22%
82 | O=c1[nH]c2ccccc2n1C1CCN(C(c2ccccc2OC(F)(F)F)c2nnnn2C2CCCC2)CC1 (stereo not drawn) | inactive: 3.36%
83 | N#CC1(Nc2ccccc2)CCN(CCc2ccccc2)CC1 | inactive: 1.94%
84 | CCN1CCC(Nc2ccc(Cl)cc2)CC1 | inactive: 3.66%
85 | CSc1ccc(C(=O)NCC2(N3CCOCC3)CCCCC2)cc1 | inactive: 4.03%
86 | O=C(NCC1(N2CCCCC2)CCCCC1)c1cccc([N+](=O)[O-])c1 | inactive: -9.63%
87 | O=C(NCC1(N2CCCCC2)CCCCC1)c1ccc(OC(F)F)cc1 | inactive: -10.9%
88 | CC(C)(C)n1nnnc1C(c1ccccc1OC(F)(F)F)N1CCC(n2c(=O)[nH]c3ccccc32)CC1 (stereo not drawn) | inactive: -5.3%

Row | SMILES | inhibition
89 | O=C(NCC1(N2CCOCC2)CCCCC1)c1cc(=O)[nH]c2ccccc12 | inactive: 0.22%
90 | COc1cc(C(=O)NCC2(N3CCCCC3)CCCCC2)ccc1OC(F)F | inactive: -12%
91 | CC(C)c1ccc(C(=O)NCC2(N3CCOCC3)CCCCC2)cc1 | inactive: -3.21%
92 | COc1ccc(NC2CCN(C(=O)OC(C)(C)C)CC2)cc1 | inactive: 1.31%
93 | CN1CCN(CCOC(=O)C(O)(c2ccccc2)c2ccccc2)CC1 | inactive: -15.1%
94 | CCCCn1nnnc1C(c1cccc2ccccc12)N1CCC(n2c(=O)[nH]c3ccccc32)CC1 (stereo not drawn) | inactive: -15.9%
95 | O=C(NCC1(N2CCCCC2)CCCCC1)c1cccc(C(F)(F)F)c1 | inactive: 6.24%
96 | CCC(c1nnnn1C(C)(C)C)N1CCC(n2c(=O)[nH]c3ccccc32)CC1 (stereo not drawn) | inactive: 1.74%
97 | O=C(NCC1(N2CCOCC2)CCCCC1)c1cc(F)c(F)cc1Cl | inactive: -5.69%
98 | COc1cc(OC)c(C(=O)NCC2(N(C)C)CCCCC2)cc1OC | inactive: 0.29%
99 | CCCCn1nnnc1C(c1ccnc2ccccc12)N1CCC(n2c(=O)[nH]c3ccccc32)CC1 (stereo not drawn) | inactive: 5.19%
100 | CC(C)c1ccc(NC2CCN(C(=O)OC(C)(C)C)CC2)cc1 | inactive: -1.31%
101 | CCCCn1nnnc1C(c1ccccc1OC(F)(F)F)N1CCC(n2c(=O)[nH]c3ccccc32)CC1 (stereo not drawn) | inactive: 7.89%
102 | CN(C)c1cccc(C(=O)NCC2(N3CCCCC3)CCCCC2)c1 | inactive: 4.35%
103 | COc1ccc(CN(CCCl)CCCl)cc1Cl | inactive: -7.64%
104 | COc1ccc(C(c2nnnn2C2CCCC2)N2CCC(n3c(=O)[nH]c4ccccc43)CC2)cc1 (stereo not drawn) | inactive: -1.06%
105 | CCCOc1ccc(C(=O)NCC2(N(C)C)CCCCC2)cc1OC | inactive: -0.34%
106 | Cc1ccc(C(=O)NCC2(N(C)C)CCCCC2)o1 | inactive: -14.3%
107 | CN1CCC(Nc2cccc(F)c2)CC1 | inactive: 1.42%
108 | O=C(NCC1(N2CCCCC2)CCCCC1)c1cncc(Br)c1 | inactive: 3.57%

Reference: PubChem BioAssay AID602123 (The Scripps Research Institute Molecular Screening Center, 2011)
